Experimental data from US8507530B2, “Pyridine derivatives substituted by heterocyclic ring and phosphonoamino group, and anti-fungal agent containing same” (dated 2013).

System: C. albicans E81022 strain
Test: Experimental systemic candidal infection model in mice
Conditions: caudal vein, twice every 6 hours, female ICR mice infected i.v. with C. albicans E81022, observed until 14 days after infection

O=P([O-])([O-])Nc1ncccc1-c1cc(Cc2ccc(COc3ccccn3)cc2)no1.[Na+].[Na+]
Mean Survival Days (2.5 mg/kg): 13.6 days | Mean Survival Days (10 mg/kg): 13.2 days
